Measured values from several laboratories, pooled; numbers as filed in NIAID ChemDB.

Shared fields: enzyme or target tests

Blank or dashed fields: not listed here. Inhibition is in % at the dose shown (toxicity tests: loss of growth or viability). ICn is the concentration giving n% inhibition. Fold resistance: result on the changed form divided by that on wild type. Two numbers with a dash give a range or band. Conditions beyond the fields shown may differ between rows.

structure | target | tested at | mutations | organism | strain | method | endpoint | result
CCCS(=O)(=O)NCCCCC(C)(C)CN(C[C@@H](O)[C@H](Cc1ccccc1)NC(=O)O[C@H]1CO[C@H]2OCC[C@H]21)S(=O)(=O)c1ccc2c(c1)OCO2 | Protease |  |  | HIV-1 |  | fluorescence | Ki | <0.001 µM
CN(Cc1ccccc1)C(=O)c1cn2ccn(Cc3cccc(Cl)c3)c(=O)c2c(O)c1=O | Integrase |  |  | HIV-1 |  | ELISA | IC50 | <0.01 µM
CN=C(NC#N)NCCCCCC(C)(C)CN(C[C@@H](O)[C@H](Cc1ccccc1)NC(=O)O[C@H]1CO[C@H]2OCC[C@H]21)S(=O)(=O)c1ccc2c(c1)OCO2 | Protease |  |  | HIV-1 |  | fluorescence | Ki | <0.001 µM
O=C(CSc1nnnn1-c1ccc(C2CC2)cc1Cl)Nc1ccc(-c2ccc(OCCN3CCCC3)cc2)c(F)c1Cl | Reverse transcriptase |  | RT-K103 Y181C | HIV-1 |  | PicoGreen / fluorescence | IC50 | <1 µM
COCC(C)(C)C(=O)c1cn2c(c(O)c1=O)C(=O)N(Cc1ccc(F)cc1)CC2 | Integrase |  |  | HIV-1 |  | ELISA | IC50 | 0.01–0.1 µM
CC(CO)(CO)NC(=O)[C@@H]1CCCN1C(=O)[C@@H](O)[C@H](Cc1ccccc1)NC(=O)[C@H](CS(C)(=O)=O)NC(=O)COc1cccc2ccccc12 | Protease | 0.05 µM |  | HIV-1 |  |  | inhibition | 32.1%
CC(C)(CCCCNC(=O)C1CC1)CN(C[C@@H](O)[C@H](Cc1ccccc1)NC(=O)O[C@H]1CO[C@H]2OCC[C@H]21)S(=O)(=O)c1ccc2c(c1)OCO2 | Protease |  |  | HIV-1 |  | fluorescence | Ki | <0.001 µM
COc1ccccc1CC(=O)Nc1ccc(NC(=O)CSc2nnnn2-c2ccc(C(C)(C)C)cc2Cl)c(Cl)c1 | Reverse transcriptase |  |  | HIV-1 | WT | PicoGreen / fluorescence | IC50 | <1 µM
CC(C)Oc1cccc(OCC(=O)N[C@@H](CS(C)(=O)=O)C(=O)N[C@@H](Cc2ccccc2)[C@H](O)C(=O)N2CSC(C)(C)[C@H]2C(=O)NC(C)(C)C)c1 | Protease | 0.05 µM |  | HIV-1 |  |  | inhibition | 98%
COCC(=O)NCC(=O)NCCCC(C)(C)CN(C[C@@H](O)[C@H](Cc1ccccc1)NC(=O)O[C@H]1CO[C@H]2OCC[C@H]21)S(=O)(=O)c1ccc2c(c1)OCO2 | Protease |  |  | HIV-1 |  | fluorescence | Ki | <0.001 µM
CC(C)(C#Cc1ccc(NC(=O)CSc2nnnn2-c2ccc(C3CC3)cc2Cl)c(Cl)c1)OCCN1CCS(=O)(=O)CC1 | Reverse transcriptase |  |  | HIV-1 | WT | PicoGreen / fluorescence | IC50 | <1 µM
C#CCOC(=O)NCCCCC(C)(C)CN(C[C@@H](O)[C@H](Cc1ccccc1)NC(=O)O[C@H]1CO[C@H]2OCC[C@H]21)S(=O)(=O)c1ccc2c(c1)OCO2 | Protease |  |  | HIV-1 |  | fluorescence | Ki | <0.001 µM
CC(C)(C)c1ccc(-n2nnnc2SCC(=O)Nc2ccc(NC(=O)Cc3ccsc3)cc2Cl)c(Cl)c1 | Reverse transcriptase |  | RT-K103 Y181C | HIV-1 |  | PicoGreen / fluorescence | IC50 | <1 µM
CC(C)=CCN1Cc2cccc3[nH]c(=S)n(c23)C[C@@H]1C | Reverse transcriptase |  | RT-W266S | HIV |  | nucleotide incorporation | IC50 | >68 µM
COc1cccc(S(=O)(=O)N(C[C@@H](O)[C@H](Cc2ccccc2)NC(=O)O[C@H]2CO[C@H]3OCC[C@H]32)CC(C)(C)CCCNC(=O)OC(C)C)c1 | Protease |  |  | HIV-1 |  | fluorescence | Ki | <0.001 µM
O=C1c2c(O)c(=O)ccn2CCN1Cc1ccc(Cl)c(Cl)c1 | Integrase |  |  | HIV-1 |  | ELISA | IC50 | <0.01 µM
COc1ccc(S(=O)(=O)NCCCC(C)(C)CN(C[C@@H](O)[C@H](Cc2ccccc2)NC(=O)O[C@H]2CO[C@H]3OCC[C@H]32)S(=O)(=O)c2ccc3c(c2)OCO3)cc1 | Protease |  |  | HIV-1 |  | fluorescence | Ki | <0.001 µM
CC(C)(C)c1ccc(-n2nnnc2SCC(=O)Nc2ccc(NC(=O)Cc3c(Cl)cccc3Cl)cc2Cl)c(Cl)c1 | Reverse transcriptase |  |  | HIV-1 | WT | PicoGreen / fluorescence | IC50 | <1 µM
CCCC[C@H](NC(=O)[C@H](C)NC(=O)[C@H](CCC(=O)O)NC[C@H](Cc1ccccc1)NC(=O)[C@H](CC(C)C)NC(=O)[C@@H](NC(=O)[C@@H](N)CCCN=C(N)N)C(C)C)C(N)=O | Protease |  | PR-G48V | HIV |  | HPLC | IC50 | >0.075 µM
O=C(Nc1cn2ccn(Cc3ccc(F)cc3)c(=O)c2c(O)c1=O)c1ccccc1 | Integrase |  |  | HIV-1 |  | ELISA | IC50 | <0.01 µM
Nc1ccn([C@H]2CC[C@@H](COP(=O)(O)OP(=O)(O)OP(=O)(O)O)O2)c(=O)n1 | Reverse transcriptase |  | RT-T215Y | HIV |  |  | Ki | 17 µM
COc1ccc(S(=O)(=O)N(C[C@@H](O)[C@H](Cc2ccccc2)NC(=O)O[C@H]2CCOC2)CC(C)(C)CCC#N)cc1 | Protease |  |  | HIV-1 |  | fluorescence | Ki | <0.001 µM
CS(=O)(=O)C[C@H](NC(=O)COc1cccc2ccccc12)C(=O)N[C@@H](Cc1ccccc1)[C@H](O)C(=O)N1CCC[C@H]1C(=O)Nc1cccc(O)c1 | Protease | 0.05 µM |  | HIV-1 |  |  | inhibition | 11.1%
CN(CCc1ccncc1)C(=O)COc1ccc(NC(=O)CSc2nnnn2-c2ccc(C3CC3)cc2Cl)c(Cl)c1 | Reverse transcriptase |  |  | HIV-1 | WT | PicoGreen / fluorescence | IC50 | <1 µM
CC[C@@H](C)[C@H](NC(=O)COc1cccc2ccccc12)C(=O)N[C@@H](Cc1ccccc1)[C@H](O)C(=O)N1CSC[C@H]1C(=O)NC(C)(C)C | Protease | 0.05 µM |  | HIV-1 |  |  | inhibition | 93%
CC(C)(C#Cc1ccc(NC(=O)CSc2nnnn2-c2ccc(C3CC3)cc2Cl)c(Cl)c1)C(=O)NC(C)(C)C(=O)O | Reverse transcriptase |  |  | HIV-1 | WT | PicoGreen / fluorescence | IC50 | <1 µM
CC(C)[C@H](NC(=O)[C@@H]1CCCN1C(=O)[C@@H](O)[C@H](Cc1ccccc1)NC(=O)[C@H](CC(N)=O)NC(=O)OCc1ccccc1)C(=O)NCC1CCCCC1 | Protease | 5 µM |  | HIV-1 |  |  | inhibition | 96%
CC(C)(C#Cc1ccc(NC(=O)CSc2nnnn2-c2ccc(C3CC3)cc2Cl)c(Cl)c1)NC(=O)C1CC1 | Reverse transcriptase |  | RT-K103 Y181C | HIV-1 |  | PicoGreen / fluorescence | IC50 | <1 µM
CCOC(=O)NCCCC(C)(C)CN(C[C@@H](O)[C@H](Cc1ccccc1)NC(=O)O[C@H]1CO[C@H]2OCC[C@H]21)S(=O)(=O)c1ccc2c(c1)OCO2 | Protease |  |  | HIV-1 |  | fluorescence | Ki | <0.001 µM
Cc1cn([C@H]2CC[C@@H](COP(=O)(O)OP(=O)(O)OP(=O)(O)O)O2)c(=O)[nH]c1=O | Reverse transcriptase |  |  | HIV |  |  | Ki | 0.022 µM
CC(C)(CCCN)CN(C[C@@H](O)[C@H](Cc1ccccc1)NC(=O)O[C@H]1CO[C@H]2OCC[C@H]21)S(=O)(=O)c1ccc(N)cc1 | Protease |  |  | HIV-1 |  | fluorescence | Ki | <0.001 µM
CC(C)(O)C#Cc1ccc(NC(=O)CSc2nnnn2-c2cc(C(C)(C)C)ccc2Cl)c(Cl)c1 | Reverse transcriptase |  | RT-K103 Y181C | HIV-1 |  | PicoGreen / fluorescence | IC50 | <1 µM
CC(=O)Nc1ccc(CNC(=O)c2cn3c(c(O)c2=O)C(=O)N(Cc2ccc(F)cc2)CC3)cc1 | Integrase |  |  | HIV-1 |  | ELISA | IC50 | 0.01–0.1 µM
CC(C)(CCNC(=O)OC1COCOC1)CN(C[C@@H](O)[C@H](Cc1ccccc1)NC(=O)O[C@H]1CO[C@H]2OCC[C@H]21)S(=O)(=O)c1ccc2c(c1)OCO2 | Protease |  |  | HIV-1 |  | fluorescence | Ki | <0.001 µM
Nc1ccn([C@@H]2CS[C@H](COP(=O)(O)OP(=O)(O)OP(=O)(O)O)O2)c(=O)n1 | Reverse transcriptase |  | RT-L74V | HIV |  | radiometric | Ki | 0.354 µM
CC(C)(CCCOC(=O)NO)CN(C[C@@H](O)[C@H](Cc1ccccc1)NC(=O)O[C@H]1CO[C@H]2OCC[C@H]21)S(=O)(=O)c1ccc2c(c1)OCO2 | Protease |  |  | HIV-1 |  | fluorescence | Ki | <0.001 µM
CC(C)(C#Cc1ccc(NC(=O)CSc2nnnn2-c2ccc(C3CC3)cc2Cl)c(Cl)c1)NS(C)(=O)=O | Reverse transcriptase |  | RT-K103 Y181C | HIV-1 |  | PicoGreen / fluorescence | IC50 | <1 µM
CCCNC(=O)OCCC(C)(C)CN(C[C@@H](O)[C@H](Cc1ccccc1)NC(=O)O[C@H]1CO[C@H]2OCC[C@H]21)S(=O)(=O)c1ccc2c(c1)OCO2 | Protease |  |  | HIV-1 |  | fluorescence | Ki | <0.001 µM
CC(C)[C@H](NC(=O)COc1cccc2cnccc12)C(=O)N[C@@H](Cc1ccccc1)[C@H](O)C(=O)N1CCC[C@H]1C(=O)NC(C)(C)C | Protease | 0.05 µM |  | HIV-1 |  |  | inhibition | 69%
COc1ccc(OC(=O)NCCC(C)(C)CN(C[C@@H](O)[C@H](Cc2ccccc2)NC(=O)O[C@H]2CO[C@H]3OCC[C@H]32)S(=O)(=O)c2ccc3c(c2)OCO3)cc1 | Protease |  |  | HIV-1 |  | fluorescence | Ki | <0.001 µM
O=C(CSc1nnnn1-c1ccc(C2CC2)cc1Cl)Nc1ccc(C#CC2(CN3CCC(O)CC3)CC2)cc1Cl | Reverse transcriptase |  |  | HIV-1 | WT | PicoGreen / fluorescence | IC50 | <1 µM
CN(C)C(=O)NCCCCCC(C)(C)CN(C[C@@H](O)[C@H](Cc1ccccc1)NC(=O)O[C@H]1CO[C@H]2OCC[C@H]21)S(=O)(=O)c1ccc2c(c1)OCO2 | Protease |  |  | HIV-1 |  | fluorescence | Ki | <0.001 µM
CC(C)(C#Cc1ccc(NC(=O)CSc2nnnn2-c2ccc(C3CC3)cc2Cl)c(Cl)c1)C(=O)NS(=O)(=O)c1ccccc1 | Reverse transcriptase |  |  | HIV-1 | WT | PicoGreen / fluorescence | IC50 | <1 µM
COc1ccnc2[nH]cc(C(=O)C(=O)N3CCN(C(=O)c4ccccc4)C[C@H]3C)c12 | gp120 |  | GP120-D185N | HIV-1 | NL4-3 | ELISA | fold resistance | 1
CC(C)(C)c1ccc(-n2nnnc2SCC(=O)Nc2ccc(C(=O)N3CCOCC3)cc2Cl)c(Cl)c1 | Reverse transcriptase |  |  | HIV-1 | WT | PicoGreen / fluorescence | IC50 | <1 µM
COc1cccc(CN2CCc3cn(C)c(=O)c(O)c3C2=O)c1 | Integrase |  |  | HIV-1 |  | ELISA | IC50 | 0.01–0.1 µM
CC(C)(C)c1ccc(-n2nnnc2SCC(=O)Nc2ccc(-c3ccc(OCCN4CCC(C(=O)O)CC4)cc3)cc2Cl)c(Cl)c1 | Reverse transcriptase |  | RT-K103 Y181C | HIV-1 |  | PicoGreen / fluorescence | IC50 | <1 µM
CCOC(=O)NCC(=O)NCCC(C)(C)CN(C[C@@H](O)[C@H](Cc1ccccc1)NC(=O)O[C@H]1CO[C@H]2OCC[C@H]21)S(=O)(=O)c1ccc2c(c1)OCO2 | Protease |  |  | HIV-1 |  | fluorescence | Ki | <0.001 µM
CC(C)(C)c1ccc(-n2nnnc2SCC(=O)Nc2ccc(C#CCN3CCOCC3)cc2Cl)c(Cl)c1 | Reverse transcriptase |  |  | HIV-1 | WT | PicoGreen / fluorescence | IC50 | <1 µM
O=c1c(-c2ccncc2)cn2ccn(Cc3ccc(F)cc3)c(=O)c2c1O | Integrase |  |  | HIV-1 |  | ELISA | IC50 | <0.01 µM
COC(=O)Cc1cccc(-c2ccc(NC(=O)CSc3nnnn3-c3ccc(C)cc3Cl)c(Cl)c2)c1 | Reverse transcriptase |  |  | HIV-1 | WT | PicoGreen / fluorescence | IC50 | <1 µM
CCOC(=O)NCCCCC(C)(C)CN(C[C@@H](O)[C@H](Cc1ccccc1)NC(=O)O[C@H]1CO[C@H]2OCC[C@H]21)S(=O)(=O)c1ccc2c(c1)OCO2 | Protease |  |  | HIV-1 |  | fluorescence | Ki | <0.001 µM
CC(C)(C#Cc1ccc(NC(=O)CSc2nnnn2-c2cc(C3CC3)ccc2Cl)c(Cl)c1)NC(=O)CN1CCNCC1 | Reverse transcriptase |  |  | HIV-1 | WT | PicoGreen / fluorescence | IC50 | <1 µM
CC[C@H](C)[C@@H](C(=O)N[C@H](C(N)=O)C(C)C)N(C)C(=O)[C@@H]1CCCN1C(=O)[C@@H](O)[C@H](Cc1ccccc1)NC(=O)[C@H](CC(N)=O)NC(=O)CCc1ccccc1 | Protease | 5 µM |  | HIV-1 |  |  | inhibition | 7.1%
CC(C)(C#Cc1ccc(NC(=O)CSc2nnnn2-c2ccc(C(C)(C)C)cc2Cl)c(Cl)c1)C(=O)NC1CC1 | Reverse transcriptase |  | RT-K103 Y181C | HIV-1 |  | PicoGreen / fluorescence | IC50 | <1 µM
CN(C)c1ccc(CNC(=O)c2cn3c(c(O)c2=O)C(=O)N(Cc2ccc(F)cc2)CC3)cc1 | Integrase |  |  | HIV-1 |  | ELISA | IC50 | 0.01–0.1 µM
CC(C)(C#Cc1ccc(NC(=O)CSc2nnnn2-c2ccc(C3CC3)cc2Cl)c(Cl)c1)OCCO | Reverse transcriptase |  |  | HIV-1 | WT | PicoGreen / fluorescence | IC50 | <1 µM
CC[C@@H](C)[C@H](NC(=O)[C@@H]1CCCN1C(=O)[C@@H](O)[C@H](Cc1ccccc1)NC(=O)CCc1ccccc1)C(=O)N[C@H](C(N)=O)C(C)C | Protease |  |  | HIV-1 |  |  | IC50 | >5 µM